Laboratory results published in patent US8778876B2, “Small-molecule inhibitors of Dengue and West Nile virus proteases” (The Board of Regents of the University of Texas System, priority 2011, dated 2014).
Where two headings read alike, the source gives them in different places.

The chains behind the UniProt entries cited, without tags or fusion partners. Residues count along the entry.
UniProt P06935, 1502-1679 limits assumed: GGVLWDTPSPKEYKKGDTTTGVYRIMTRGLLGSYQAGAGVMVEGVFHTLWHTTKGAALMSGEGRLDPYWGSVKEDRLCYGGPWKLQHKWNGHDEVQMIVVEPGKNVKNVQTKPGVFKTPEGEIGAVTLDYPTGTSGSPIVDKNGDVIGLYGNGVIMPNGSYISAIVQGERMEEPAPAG
UniProt P06935, 1424-1463 partner limits assumed: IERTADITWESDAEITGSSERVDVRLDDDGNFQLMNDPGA

Tests used:
[1] = biological target: DEN2V NS2B-NS3pro (Dengue virus type 2, UniProt Q91H74); test: Steady-state kinetics of inhibitors of DEN2V NS2B-NS3pro (Boc-GRR-AMC substrate, Dynafit); assay type: biochemical, Dengue 2 virus
[2] = biological target: WNV NS2B-NS3pro (West Nile virus, UniProt P06935); test: Steady-state kinetics of inhibitors of WNV NS2B-NS3pro; details: read-out: Ki1 (from biochemical protease inihibition experiments) West Nile virus NS2B-NS

Cc1cc(O)c2c(c1)C(=O)c1cc(O)cc(O)c1C2=O
Ki ([1]; read-out: DEN2V NS2B-NS3 Ki1, second series analogs): 508 µM
Ki ([1]; read-out: Ki1 (from biochemical protease inihibition experiments) Dengue 2 virus NS2B-NS3): 508 µM
DEN2V NS2B-NS3 Mechanism ([1]; second series analogs): Competitive
Ki [2]: 1040 µM
